Consider one compound from ChEMBL document CHEMBL1155806, “Inorganic polyhedral metallacarborane inhibitors of HIV protease: a new approach to overcoming antiviral resistance” (J Med Chem, 2008).

The target in experiment [1] is Human immunodeficiency virus type 1 protease (Human immunodeficiency virus 1, UniProt Q72874, A71V/E35D/F53L/H69K/I54V/I84V/I93L/K20R/L10F/L19I/L33F/L63P/L89M/L90M/M36I/R41K/T74P). Nature of the experiment: Inhibition of HIV1 recombinant protease L10F/L19I/K20R/L33F/E35D/M36I/R41K/F53L/I54V/L63P/H69K/A71V/T74P/I84V/L89M/L90M/I93L mutant expressed in Escherichia coli by spectrophotometric assay. The procedure, abridged:
(§1)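 Recombinant PR refolded from inclusion bodies and purified. 8-10 pmol enzyme in 1 mL 0.1 M sodium acetate pH 4.7, 0.3 M NaCl, 4 mM EDTA. Ki obtained by fitting the Williams–Morrison competitive inhibition equation.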

For experiment [2], the target named is Human immunodeficiency virus type 1 protease (Human immunodeficiency virus 1, UniProt Q72874, A71V/E35D/G73S/I15V/I62V/L10I/L63P/L90M/N37S/R41K). Put plainly: Inhibition of HIV1 recombinant protease L10I/I15V/E35D/N37S/R41K/I62V/L63P/A71V/G73S/L90M mutant expressed in Escherichia coli by spectrophotometric assay.
Experiment [3] addresses Human immunodeficiency virus type 1 protease (Human immunodeficiency virus 1, UniProt Q72874, A71V/I84V/M46I/V82T). Put plainly: Inhibition of HIV1 recombinant protease M46I/A71V/V82T/I84V mutant expressed in Escherichia coli by spectrophotometric assay. Put shortly: as §1
In experiment [4] the target is Human immunodeficiency virus type 1 protease (Human immunodeficiency virus 1, UniProt Q72874, D30N/N88D). Nature of the experiment: Inhibition of HIV1 recombinant protease D30N/N88D mutant expressed in Escherichia coli by spectrophotometric assay. Put shortly:
as §1

The target in experiment [5] is Human immunodeficiency virus type 1 protease (Human immunodeficiency virus 1, UniProt Q72874, A71V/I54V/I84V/L10I/L24I/L33F/L63P/M46L/V82A). Put plainly: Inhibition of HIV1 recombinant protease L10I/L24I/L33F/M46L/I54V/L63P/A71V/V82A/I84V mutant expressed in Escherichia coli by spectrophotometric assay. Put shortly:
as §1

For experiment [6], the target named is Human immunodeficiency virus type 1 protease (Human immunodeficiency virus 1, UniProt Q72874, I47A/V32I). Put plainly: Inhibition of HIV1 recombinant protease V32I/I47A mutant expressed in Escherichia coli by spectrophotometric assay. The procedure, abridged:
as §1

Experiment [7] is described as follows: Ratio of Ki for HIV1 recombinant protease L10I/L24I/L33F/M46L/[…]/L63P/A71V/V82A/I84V mutant to Ki for wild-type HIV1 BH10 protease expressed in Escherichia coli. Also noted: species or system Human immunodeficiency virus 1.
In experiment [8] the target is Human immunodeficiency virus type 1 protease (Human immunodeficiency virus 1, UniProt Q72874, A71V/I84V/V82T). Put plainly: Inhibition of HIV1 recombinant protease A71V/V82T/I84V mutant expressed in Escherichia coli by spectrophotometric assay. The procedure, abridged: as §1

`Cc1cccc(C)c1OCC(=O)N[C@@H](Cc1ccccc1)[C@@H](O)C[C@H](Cc1ccccc1)NC(=O)[C@H](C(C)C)N1CCCNC1=O` [LOPINAVIR]: the Ki in experiment [1] was 0.5 nM; in experiment [2], 0.029 nM; in experiment [3], 0.029 nM; in experiment [4], 0.026 nM; in experiment [5], 0.44 nM; in experiment [6], 2.4 nM. The Ki in experiment [8] was found to be 0.06 nM. In addition, the Ki ratio in experiment [7] was 24.
